Anti-infective test results gathered from many reports (values: NIAID ChemDB through PubChem).

All rows: toxicity to cultured cells; cells: KB; read-out: CC50

CCn is the concentration with n% toxicity to the cells. Rows are shuffled and stem from different studies. An empty or dashed field is not shown.

structure	read by	result
O=C(CCCCCCCCc1ccccc1)c1c(O)cc(O)cc1O	resazurin	>20 µg/mL
OCCOCn1c(SCc2ccccc2)nc2c(Cl)c(Cl)ccc21		35 µM
N#CC1=C(N)SC(c2ccncc2)C2=C1/C(=C/c1ccncc1)CCC2	MTT	>50 µM
COc1cc([C@@H]2CCc3ccc(O)cc3O2)ccc1O	resazurin	16.24 µg/mL
OCCOCn1c(Cl)nc2cc(Cl)c(Cl)cc21		>320 µM
C=C1[C@H](O)[C@@H](CO)S[C@@H]1n1cc(/C=C/Br)c(=O)[nH]c1=O	MTT	>100 µg/mL
CNc1nc2cc(Cl)c(Cl)cc2n1COC(CO)CO		>100 µM
Cc1ccc(/C=C2/Cn3c(nc4c(c3=S)C3=C(CCC/C3=C\c3ccncc3)C(c3ccncc3)S4)SC2=O)cc1	MTT	19.8 µM
OCC(CO)OCn1c(SCc2ccccc2)nc2c(Cl)c(Cl)ccc21		60 µM
CCOC(=O)c1[nH]c2c(c1NC(N)=S)C1=C(CCC/C1=C\c1ccncc1)C(c1ccncc1)S2	MTT	49.4 µM
C=C1[C@H](n2cc(CC)c(=O)[nH]c2=O)S[C@H](CO)[C@H]1O	MTT	>100 µg/mL
O=c1sc2nc3c(c(=S)n2/c1=C/c1ccc(Cl)cc1)C1=C(CCC/C1=C\c1ccncc1)C(c1ccncc1)S3	MTT	34.1 µM
C=C1[C@H](n2cc(CCCl)c(=O)[nH]c2=O)S[C@H](CO)[C@H]1O	MTT	>100 µg/mL
CCO/C=N\C1=C(C#N)C2=C(CCC/C2=C\c2ccncc2)C(c2ccncc2)S1	MTT	46.8 µM
C=C1[C@H](O)[C@@H](CO)S[C@@H]1n1cc(CCCl)c(=O)[nH]c1=O	MTT	>100 µg/mL